# Read-outs that look alike come from different tables or passages of the source.
# By UniProt entry, the sequences of proteins in these tests, tags left out.
# UniProt Q8T6T2, whole entry: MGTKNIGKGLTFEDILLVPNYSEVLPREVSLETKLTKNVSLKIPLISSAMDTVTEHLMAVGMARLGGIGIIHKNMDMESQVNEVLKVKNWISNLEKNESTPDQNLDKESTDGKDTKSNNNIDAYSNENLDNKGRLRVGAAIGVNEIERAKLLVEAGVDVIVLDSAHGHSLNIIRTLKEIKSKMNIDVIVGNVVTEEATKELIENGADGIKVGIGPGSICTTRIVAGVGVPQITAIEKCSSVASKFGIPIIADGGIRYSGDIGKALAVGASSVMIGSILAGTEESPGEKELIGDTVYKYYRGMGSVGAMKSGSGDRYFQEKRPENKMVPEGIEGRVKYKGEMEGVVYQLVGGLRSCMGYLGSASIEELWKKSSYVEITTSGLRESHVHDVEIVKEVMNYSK
# UniProt P0C0H6, whole entry: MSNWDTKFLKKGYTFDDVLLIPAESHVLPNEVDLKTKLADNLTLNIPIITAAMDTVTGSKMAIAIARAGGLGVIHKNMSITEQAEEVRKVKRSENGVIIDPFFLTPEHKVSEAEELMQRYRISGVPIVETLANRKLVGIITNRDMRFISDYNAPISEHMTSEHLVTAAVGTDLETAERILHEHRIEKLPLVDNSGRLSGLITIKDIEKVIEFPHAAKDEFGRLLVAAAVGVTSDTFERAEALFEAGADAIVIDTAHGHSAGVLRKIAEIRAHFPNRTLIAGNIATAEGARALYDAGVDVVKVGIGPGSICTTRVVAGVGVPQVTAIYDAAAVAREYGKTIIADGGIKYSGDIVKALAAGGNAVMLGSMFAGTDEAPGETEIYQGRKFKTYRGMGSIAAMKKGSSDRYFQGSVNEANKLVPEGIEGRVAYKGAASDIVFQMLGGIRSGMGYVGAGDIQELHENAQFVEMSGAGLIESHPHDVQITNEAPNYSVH
# UniProt P56088, whole entry: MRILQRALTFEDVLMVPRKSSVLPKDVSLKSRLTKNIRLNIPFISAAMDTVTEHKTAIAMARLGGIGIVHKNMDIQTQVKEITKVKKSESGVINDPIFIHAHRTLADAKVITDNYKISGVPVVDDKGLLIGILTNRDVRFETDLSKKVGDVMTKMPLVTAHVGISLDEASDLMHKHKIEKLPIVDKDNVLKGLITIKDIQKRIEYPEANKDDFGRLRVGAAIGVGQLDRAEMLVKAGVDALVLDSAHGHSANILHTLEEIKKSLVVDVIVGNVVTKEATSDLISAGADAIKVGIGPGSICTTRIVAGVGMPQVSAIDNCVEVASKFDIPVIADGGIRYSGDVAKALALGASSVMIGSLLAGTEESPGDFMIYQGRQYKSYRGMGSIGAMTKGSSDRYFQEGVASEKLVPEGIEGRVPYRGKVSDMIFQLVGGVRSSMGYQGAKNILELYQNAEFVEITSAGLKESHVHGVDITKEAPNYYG
# What was measured:
# [1] = biological target: T1, recombinant C. parvum IMPDH (Cryptosporidium parvum, UniProt Q8T6T2); test: C. parvum IMPDH inhibition (NADH production); format: biochemical; conditions: for IC50: read-out: IC50 CpIMPDH
# Experimental: Recombinant C. parvum IMPDH was expressed in bacteria and purified as described previously [N. N. Umejiego et al., J Biol Chem 279, 40320-40327 (2004)].
# Inhibitors at varying concentrations (25 pM-5 μM) were incubated with 10 nM C. parvum in assay buffer for 10 min at room temperature. The reaction was initiated by the addition of NAD and IMP for final concentrations of 300 μM and 150 μM, respectively. Selectivity was measured against human type II and T. foetus IMPDH at 25° C. in assay buffer. The former was assayed in the presence of 300 μM NAD 40 μM IMP and 160 nM human type II IMPDH, and the latter in the presence of 300 μM NAD 20 μM IMP and 28 nM T. foetus IMPDH. The production of NADH was monitored spectrophotometrically at 340 nm (=6.22 mM^−1 cm^−1) using a Hitachi U-2000 spectrophotometer.
# IC50 values were calculated for each inhibitor according to the following equation: υi=υo/(1+[I]/IC50), using the SigmaPlot program (SPSS, Inc.).
# The CpIMPDH inhibitory activity of the compounds was assessed by monitoring the production of NADH by fluorescence (FIG. 55). Replacing the p-MeO of the parent compound C with Cl or Br increased potency by 10-fold (C10, aka 126) and 20-fold (C14, aka 130), respectively, as has been similarly observed with another inhibitor series. To fill the cavity observed in the crystal structure, the para-substituted aniline group was replaced with 3,4-dichloroaniline (C86) or 2-naphthylamine (C90); the addition of a second Cl improved potency by a factor of 2, while fusing an additional aromatic ring increased potency by a factor of 8. Similar trends were observed when the thiazole ring was attached at the 2-position (C61 aka 171, C64 aka 174, C84 and C90). […] The best CpIMPDH inhibitor, C90, has an IC50=7.4 nM with selectivity >10^3 for the parasite enzyme.
# Evaluation of Cp-IMPDH inhibitory activity for the various prepared compounds was conducted utilizing an assay measuring the conversion of IMP to XMP by monitoring the production of NADH by fluorescence emission in the presence of varying inhibitor concentrations. […] On the contrary, ortho and meta substitutions were devoid of inhibition activity.
# [2] = biological target: SpIMPDH (Streptococcus pyogenes, UniProt P0C0H6); test: S. pyogenes IMPDH inhibition; format: biochemical
# [3] = biological target: T1, recombinant C. parvum IMPDH; conditions: read-out: IC50 CpIMPDH (reference [13]); cited from earlier work
# [4] = tested on: H. pylori strain G27; test: H. pylori growth assay (colony forming units); format: cell-based, Helicobacter pylori
# [5] = biological target: HpIMPDH (Helicobacter pylori, UniProt P56088); test: H. pylori IMPDH inhibition; format: biochemical; conditions: read-out: IC50 HpIMPDH
# [6] = tested on: CpIMPDH, HpIMPDH, BbIMPDH and S250A/L444Y; test: intrinsic IC50 (adjusted for competition with the mobile flap); conditions: read-out: intrinsic IC50, range over CpIMPDH, HpIMPDH, BbIMPDH and S250A/L444Y
smiles,measurement,setting,value
O=C(Cn1c(-c2cccs2)nc2ccccc21)Nc1ccc(Cl)cc1,drop in CpIMPDH IC50 compared to C61,[1],about 10 nM
same,IC50,[1],20 nM
Nc1ccc(C(=O)OCc2nc3cc4ccccc4cc3[nH]2)cc1,IC50 SpIMPDH,[2],submicromolar inhibitors
O=C(Cn1c(-c2cscn2)nc2ccccc21)Nc1ccc2ccccc2c1,"CpIMPDH inhibition, result in words",[1],most potent inhibitors
same,selectivity for the parasite enzyme (CpIMPDH) over human IMPDH2,[1],> 1000
same,"improvement of CpIMPDH potency by a factor, relative to para-substituted aniline analog","[1]; para-substituted aniline replaced with 3,4-dichloroaniline or 2-naphthylamine",8
same,IC50,[1],7 nM
O=C(Cn1c(-c2ccccn2)nc2ccccc21)Nc1ccc2ccccc2c1,IC50,[1],2 nM
same,IC50,[3],8 nM
same,concentration sufficient to block proliferation of H. pylori,[4]; culture exiting stationary phase,20 µM
same,concentration sufficient to block growth of H. pylori,[4]; exponentially growing cells,60 µM
same,IC50,[5],25 nM
Nc1ccc(C(=O)OCCCc2nc3cc4ccccc4cc3[nH]2)cc1,IC50 SpIMPDH,[2],submicromolar inhibitors
COc1ccc(NC(=O)Cn2c(-c3cscn3)nc3ccccc32)cc1,IC50,[6],180 to 360 nM
